The results in this text go back to article PMC5223167.

The series deals with T1, PPE2 (nuclear extract) (UniProt P9WI47).
T1 sequence (looked up, limits assumed): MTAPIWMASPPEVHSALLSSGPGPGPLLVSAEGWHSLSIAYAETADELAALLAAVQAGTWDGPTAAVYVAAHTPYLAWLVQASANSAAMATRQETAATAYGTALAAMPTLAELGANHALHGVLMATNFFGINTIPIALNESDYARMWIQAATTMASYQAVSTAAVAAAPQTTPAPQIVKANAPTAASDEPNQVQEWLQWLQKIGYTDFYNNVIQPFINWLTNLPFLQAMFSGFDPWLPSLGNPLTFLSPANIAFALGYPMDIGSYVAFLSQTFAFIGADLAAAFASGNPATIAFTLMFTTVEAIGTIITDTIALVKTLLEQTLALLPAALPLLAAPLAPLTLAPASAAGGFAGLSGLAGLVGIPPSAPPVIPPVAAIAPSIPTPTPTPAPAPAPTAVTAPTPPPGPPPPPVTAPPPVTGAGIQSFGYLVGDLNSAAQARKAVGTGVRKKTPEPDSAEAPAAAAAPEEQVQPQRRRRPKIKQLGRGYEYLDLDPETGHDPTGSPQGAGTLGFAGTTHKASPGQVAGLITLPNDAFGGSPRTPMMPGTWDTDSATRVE
Description: EMSA supershift. The note with it: anti-PPE2 antibody, 20 mM HEPES (pH not stated), 0.5 mM DTT, 0.5 mM EDTA, 5% glycerol, room temperature, 30 min, protein in an extract, label: 32P 5' end. In general terms: Mobility shift assays separate free from complexed probe on a gel.

The exact form of at least one protein or probe is not confirmed. Results from cells or extracts need not show a direct contact. Protein sequences can lack the tags named with them.

Turning to “GGGGTATAAATACCTGATGGCTGCTGCCAG (double strand) [inos proximal GATA-1 element (overlaps TATA box)]”, the binding result was “binds”.
